Pooled drug test results. Numbers come from NIAID ChemDB, via PubChem.

Common to all: whole-cell or culture tests; agent: Staphylococcus aureus; measure: MIC

Rows are shuffled and stem from different studies.

COC(=O)CN1OCC(N)C1=O ; value: >2500 µM
CCCCn1sc2c(F)cccc2c1=O ; strain or isolate: ATCC 6538 ; value: 40 µg/mL
CC(=O)Nc1cc2c(c(C(C)C)c1O)CC[C@H]1C(C)(C)CCC[C@]21C ; value: >32 µg/mL
CONC(=O)CN1OCC(N)C1=O ; value: >2500 µM
COc1c(CO)cc2c(c1C(C)C)CC[C@H]1C(C)(C)CCC[C@]21C ; value: >32 µg/mL
NC(=O)CN1OCC(N)C1=O ; value: >2500 µM
CC(C)c1c(O)c(C(=O)O)cc2c1CC[C@H]1C(C)(C)CCC[C@]21C ; value: 8 µg/mL
CN1CCN(c2c(Cl)cc3c(=O)c(C(=O)O)cn(C4CC4)c3c2F)CC1 ; strain or isolate: 1756 ; value: 0.5 µg/mL
CN(C)[C@@H]1C(=O)C(C(N)=O)=C(O)[C@@]2(O)C(=O)C3=C(O)c4c(O)c(NC(=O)CN5CCOCC5)cc(F)c4C[C@H]3C[C@@H]12 ; strain or isolate: 101-29213 ; method: agar diffusion ; value: 4 µg/mL
CN1OCC(N)C1=O ; value: >2500 µM
CC(=O)CCN1CCN(c2c(Cl)cc3c(=O)c(C(=O)O)cn(C4CC4)c3c2F)CC1 ; strain or isolate: 422 ; value: 0.25 µg/mL
NC1CON(Cc2ccc(F)cc2)C1=O ; value: >2500 µM
CCC(C(=O)O)c1ccccc1 ; value: 100 µM
CO[C@H]1/C=C/O[C@@]2(C)Oc3c(C)c(O)c4c(O)c(c5c(c4c3C2=O)NC2(CCN(CC(C)C)CC2)N=5)=NC(=O)/C(C)=C\C=C\[C@H](C)[C@H](O)[C@@H](C)[C@@H](O)[C@@H](C)[C@H](OC(C)=O)[C@@H]1C ; strain or isolate: ATCC 25923 ; value: 0.0625 µg/mL
O=C(O)c1cn(C2CC2)c2c(F)c(N3CCNCC3)c(Cl)cc2c1=O ; strain or isolate: 133 ; value: 0.25 µg/mL
CC(C)(C)n1cc(C(=O)O)c(=O)c2cc(F)c(N3CCNCC3)cc21 ; value: 0.03 µg/mL
CCc1cc2c(c(C(C)C)c1O)CC[C@H]1C(C)(C)CCC[C@]21C ; value: 32 µg/mL
Cc1c(O)ccc2c1CC[C@H]1C(C)(C)CCC[C@]21C ; value: 2 µg/mL
CCCCn1sc2cc(F)ccc2c1=O ; strain or isolate: ATCC 6538 ; value: 50 µg/mL
CC(C)c1c(O)ccc2c1C[C@H](O)[C@H]1C(C)(C)CCC[C@]21C ; strain or isolate: Methicillin-resistant ; value: >32 µg/mL
CO[C@H]1/C=C/O[C@@]2(C)Oc3c(C)c(O)c4c(=O)c(c5oc6cc(N7CCN(CC(C)C)CC7)cc(=O)c6nc5c4c3=C2O)NC(=O)/C(C)=C\C=C\[C@H](C)[C@H](O)[C@@H](C)[C@@H](O)[C@@H](C)[C@H](OC(C)=O)[C@@H]1C ; strain or isolate: Newman ; value: 0.0078 µg/mL
NC1CON(CCF)C1=O ; value: >2500 µM
NC(=O)c1cccc(F)c1SSc1c(F)cccc1C(N)=O ; strain or isolate: ATCC 6538 ; value: 40 µg/mL
CCC[C@H](N)C1CCN(c2c(F)cn3c(=O)c(C(=O)O)cc(C4CC4)c3c2C)C1 ; strain or isolate: NCTC10649 ; value: 0.005 µg/mL
CCCCC/C=C\C/C=C\CCCCCCCC(=O)O ; value: 200 µM
CCCCn1sc2c(C(F)(F)F)cccc2c1=O ; strain or isolate: ATCC 6538 ; value: 40 µg/mL
NC1CON(CCO)C1=O ; value: >2500 µM
CC(C)=CCC[C@H](C)CCOCCCCCC(=O)O ; value: 1000 µM
CC1CN(c2c(Cl)cc3c(=O)c(C(=O)O)cn(C4CC4)c3c2F)CC(C)O1 ; strain or isolate: 1756 ; value: ≤0.015 µg/mL
CC(=O)Oc1ccc2c(c1C(C)C)[C@@H]1O[C@@H]1[C@H]1C(C)(C)CCC[C@]21C ; strain or isolate: Methicillin-resistant ; value: >32 µg/mL
CN[C@@H]1[C@H](O[C@H]2[C@H](O[C@H]3[C@H](O)[C@@H](O)[C@H](N=C(N)N)[C@@H](O)[C@@H]3N=C(N)N)O[C@@H](C)[C@]2(O)C=O)O[C@@H](CO)[C@H](O)[C@H]1O ; strain or isolate: MRSA ; value: 6.25 µg/mL
Cc1c(N2C[C@@H]3CCCN[C@H]3C2)c(F)cn2c(=O)c(C(=O)O)cc(C3CC3)c12 ; strain or isolate: 285 ; value: 0.007 µg/mL
CC(C)c1c(O)ccc2c1CC(=O)[C@H]1C(C)(C)CCC[C@]21C ; strain or isolate: Methicillin-resistant ; value: 8 µg/mL
CN[C@@H]1[C@@H](O)[C@@H](O[C@@H]2[C@@H](O)[C@H](O[C@H]3O[C@H](CN)CC[C@H]3N)[C@@H](N)C[C@H]2N)OC[C@]1(C)O ; strain or isolate: ATCC 6538 ; value: 2.5 µg/mL
CC1CN(c2c(Cl)cc3c(=O)c(C(=O)O)cn(C4CC4)c3c2F)CC(C)N1 ; strain or isolate: 133 ; value: 0.5 µg/mL
Cc1c(N2C[C@@H]3C(N)[C@@H]3C2)c(F)cn2c(=O)c(C(=O)O)cc(C3CC3)c12 ; strain or isolate: NCTC10649 ; value: 0.05 µg/mL
CCCc1c(O)ccc2c1CC[C@H]1C(C)(C)CCC[C@]21C ; value: 2 µg/mL
O=C(O)c1cn(C2CC2)c2c(F)c(N3CCNC(C4CCCCC4)C3)c(Cl)cc2c1=O ; strain or isolate: 133 ; value: 0.06 µg/mL
CC(C)c1cc2c(cc1O[C@@H]1O[C@H](CO)[C@@H](O)[C@H](O)[C@H]1O)[C@@]1(C)CCCC(C)(C)[C@@H]1CC2 ; value: 32 µg/mL
COc1ccc2c(c1C(C)C)[C@H](O)C[C@H]1C(C)(C)CCC[C@]21C ; strain or isolate: Methicillin-resistant ; value: >32 µg/mL
Cc1c(N2CC[C@H](N)C2)c(F)cn2c(=O)c(C(=O)NCC(=O)O)cc(C3CC3)c12 ; strain or isolate: 1775 (ciprofloxacin-resistant) ; value: >100 µg/mL
CC1(C)CCC[C@]2(C)c3ccc(O)cc3CCC12 ; value: 8 µg/mL
NC1CON(Cc2ccccc2)C1=O ; value: >2500 µM
CC(C)c1cc2c(cc1O)[C@@]1(C)CCCC(C)(C)C1CC2 ; value: 8 µg/mL
NC1CON(CCOCc2ccccc2)C1=O ; value: >2500 µM
CC(C)c1c(O)ccc2c1C=C[C@H]1C(C)(C)CCC[C@]21C ; strain or isolate: Methicillin-resistant ; value: 2 µg/mL

For reference, 4 entries again:

SMILES	strain or isolate	method	value
CCCCn1sc2c(F)cccc2c1=O	ATCC 6538	-	40 µg/mL
CC1CN(c2c(Cl)cc3c(=O)c(C(=O)O)cn(C4CC4)c3c2F)CC(C)N1	133	-	0.5 µg/mL
CC(C)=CCC[C@H](C)CCOCCCCCC(=O)O	-	-	1000 µM
CN[C@@H]1[C@H](O[C@H]2[C@H](O[C@H]3[C@H](O)[C@@H](O)[C@H](N=C(N)N)[C@@H](O)[C@@H]3N=C(N)N)O[C@@H](C)[C@]2(O)C=O)O[C@@H](CO)[C@H](O)[C@H]1O	MRSA	-	6.25 µg/mL

An empty or dashed field is not shown.